B1: NRCoV2-MRed20 VHH (VHH)
VHH: EVQLVESGGGSVQAGGSLRLSCAASGLSFSSYDMGWFRQAPGKEREFVAAIRESGSGTYYADSVKGRFTISRDNAKNTVYLQVSSLKPEDTAVYTCAAKPPFYGSGTYSTPRAYLYWGQGTQVTVSS
B2: NRCoV2-MRed25 VHH (VHH)
VHH: EVQLVESGGGLVQAGGSLRLSCAASGHTFSRYGMGWFRQAPGKEREFVAAISWRGDSTYYRDSVNGRFTISRDNAKNTVYLGMNSLKPEDTAVYYCAAEMWGTATIVASRYTYWGQGTQVTVSS
B3: NRCoV2-MRed06 VHH (VHH)
VHH: EVQLVESGGGLVQAGGSLRLSCAASGFTLAYYAIGWFRQAPGKEREGVSCISSSDGSAHYADSVKGRFTISRDNAKNTVSLQMNSLKPEDTAVYYCATDSFSSCSDYESGMDFWGKGTQVTVSS
B4: NRCoV2-SR16 VHH (VHH)
VHH: QVQLVQSAGGLVQAGGSLRLSCVVSGTTFSRYHMGWHRQAPGKQRDFVAGISTSGAVTYADSAKGRFTISRDNAKNTVYLEMNSLKLEDTALYYCNTGGWDYRSSTFIMGLNWGQGTQVTVSS
B5: NRCoV2-S2A4 VHH (VHH)
VHH: QVQLVQSGGGLVQAGGSLRLSCAVSGSPFRSNVMEWYRQAPGKQRELVASISTGGSRTYTDSVKGRFTISRDNAKNEAFLQMNSLKPEDTAVYYCHAAARDSHGIYLLDTWGQGTQVTVSS
B6: NRCoV2-S2G3 VHH (VHH)
VHH: QVQLVQSGGGSVQAGGSLRLSCAASGSTFGIFLMGWRRQAPGKQRELVAHITSGGATNYADSVKGRFTISRDNAKNTVYLQMNSLEPEDTAVYYCYTTKRDDASVYWGQGTQVTVSS
B7: NRCoV2-MRed03 VHH (VHH)
VHH: EVQLVESGGGLVQPGGSLRLSCAAIGFTLDYYAIGWFRQAPGKEREGVSCISSSDGSTYYADSVKGRFTISRDNAKNTVYLQMNSLKPEDTAVYYCATDAFATCDSWYAQIAQYDFRGQGTQVTVSS
B8: NRCoV2-MRed19 VHH (VHH)
VHH: EVQLVESGGGLVQPGGSLRLSCAASTIIFKGQTMGWFRQAPGNERELVATMTTSGSANYADSVKGRFTISRDNEKTVTLQMNSLKPEDTALYYCYMHSVYYGIDYWGKGTQVTVSS
B9: NRCoV2-MRed07 VHH (VHH)
VHH: EVQLVESGGGLVQPGGSLTLSCAASGSIGPFNTMGWYRQAPGNQREPAAIITRGGVTNYADSVKGRFTISRDNAKNAVYLQMDSLKPDDTAVYYCYANYGWAIPYWGNGTQVTVSS
B10: NRCoV2-MRed18 VHH (VHH)
VHH: EVQLVESGGGLVQPGGSLRLSCAASTTVFGRNAMGWYRQAPGKERELVATVSDGGTPNYADSVKGRFTISRDNAKNTIYLQMNSLEPEDTAVYYCNYYNYYYGRNFWGQGTQVTVSS
B11: NRCoV2-MRed05 VHH-Fc (Fc fusion)
chain: EVQLVESGGGLVQPGGSLRLSCAASGFTLDYYAIGWFRQAPGKEREGVSCISSSDGSTLYADSVKGRFTISRDNAKNTVYLQMNSLKPEDTAVYYCATGPQAYYSGSYYFQCPQAGMDYWGKGTQVTVSS
notes: bivalent VHH-Fc
B12: NRCoV2-05 VHH-Fc (Fc fusion)
chain: EVKLVQSGGGLVQPGGSLRLSCAASGFIFSNYAMNWVRQAPGKGLEWVSGINSGGGDTRYADSVKGRFTVSRDNAKNTLYLQMNSLKPEDTGVYYCSKGPVSSYYGSGYDYRGQGTQVTVSS
notes: bivalent VHH-Fc
B13: NRCoV2-10 VHH-Fc (Fc fusion)
chain: QLQLQESGGGLVQPGGSLTLSCAASGNTFSRSNMHWYRQAPGAQREWVAAISSRGISTYAYSAKGRFTISRDNAKNTVSLQMNSLKPEDTAVYYCYAADDLGDYWGQGTQVTVSS
notes: bivalent VHH-Fc
B14: NRCoV2-MRed04 VHH-Fc (Fc fusion)
chain: EVQLVESGGGLVQPGRSLRLSCAASGNSFSISTMGWFRQAPGKERELVASIWSDTTTSYADSVKGRFTISTDNTRTKVYLQMSSLNPEDTAVYYCAADRGFVVRGQYDYWGQGTQVTVSS
notes: bivalent VHH-Fc
B15: NRCoV2-17 VHH-Fc (Fc fusion)
chain: EVQLQQSGGGLVQTGGSLRLSCAAAGSPFSQLAMSWYRQISGKERAWVASISPTGNRSYSKIAKGRFTISRDNAKNTVTLQMTSLKPEDTAAYICQAANVNGGDYWGQGTQVTVSS
notes: bivalent VHH-Fc
B16: NRCoV2-18 VHH-Fc (Fc fusion)
chain: EVQLVESGGGLVQAGGSLRLSCVASGITISGYNMAWWRQTRGKQTERVAFINSGGSTTYSDSVKGRFTISRDNGKNTAYLQMNSLNAEDTADYFCSLHTSHDYWGQGTQVTVSS
notes: bivalent VHH-Fc
B17: NRCoV2-SR01 VHH-Fc (Fc fusion)
chain: EVQLVQSGGGSVQAGGSLRLSCVASGFTFDNYAIGWFRQAPGKEREGVSCISGNGGVTIYADSVKGRFTISRDNAKNLVYLQMNSLKPEDTAVYYCAATGIRSTWSVYGCSRLAGPYDYWGQGTQVTVSS
notes: bivalent VHH-Fc
B18: NRCoV2-04 VHH-Fc (Fc fusion)
chain: AVQLVDSGGGLVQPGGSLRLSCAASGSPFSNVVMAWYRQAPGKQRERVAFISGGGIADYIMSVKGRFTISRDNAKNTVYLQMNSLKPEDTAVYYCWSSYESTWGQGTQVTVSS
notes: bivalent VHH-Fc
B19: NRCoV2-1d VHH-Fc (Fc fusion)
chain: EVQLVESGGGSVQPGGSLRLSCAASGSTLDYYAIGWFRQAPGKEREWVSSVSSSDGNTLYADSVKGRFTISRDNAKNTVYLQMNSLKAEDTAVYVCAADYSMRPFAVGRWHRDYEYWGQGTQVTVSS
notes: bivalent VHH-Fc
B20: NRCoV2-20 VHH-Fc (Fc fusion)
chain: EVQLQQSGGGLVQPGGSLRLSCAASGRTFSNYVVGWFRQAPQAPGKDHEFVAVISGSDTETYYADSVKGRFTISRDNAKNTVYLQMNSLKPEDTAVYYCAADRGMSYYYTRATEYYYWGQGTQVTVSS
notes: bivalent VHH-Fc
B21: NRCoV2-12 VHH-Fc (Fc fusion)
chain: EVQLQQSGGGLVQAGGSLRLSCAASGRTFRNYVMGWFRQAPQAPGKDHEFVAAISWGGTEIYYADSVKGRFTISRDNAKNTVYLQMNSLKPEDTAVYYCAADRGLSYYYTRTTEYNYWGQGTQVTVSS
notes: bivalent VHH-Fc
B22: NRCoV2-02 VHH-Fc (Fc fusion)
chain: EVQLVESGGGLVQAGGSLRLSCAASGFTFSNYAMNWVRQAPGKGLEWVSGISGRGDDTRYADSVKGRFTISRDNAKNTLFLQMRSLRPEDTGVYRCTKGPDLYYFGSGYSDRGQGTQVTVSS
notes: bivalent VHH-Fc
B23: NRCoV2-11 VHH-Fc (Fc fusion)
chain: EVQLVSSGGGLVQPGGSLRLSCAASGSSLDSYSVSWFRQAPGKEREWISFISRYYSSTYYTDSVKGRFTTSRDGDQKTVHLQMNSLKPEDTAVYYCAARSRDFSSPFSATDTYTSWGQGTQVTVSS
notes: bivalent VHH-Fc
B24: NRCoV2-15 VHH-Fc (Fc fusion)
chain: EVQLVSSGGGLVEAGGSLRLSCIASGSTSGRNTMGWFRQAPGKQREWVAIVSTSGATNYAGSVKGRFTLSRDNAKNAVYLQMNNLKPEDTAVYYCYAAYGGGGDYWGQGTQVTVSS
notes: bivalent VHH-Fc
B25: NRCoV2-07 VHH-Fc (Fc fusion)
chain: QVQLVQSGGGLVQPGGSLRLSCAASGVTLDYYAIGWFRQAPGKEREAVSCISSNGRRNHYVASVRGRFTISRDNAKSTVYLQMNSLKPEDTAVYYCAAVQDVHGDNYYCTSPNEYNVWGQGTQVTVSS
notes: bivalent VHH-Fc
B26: NRCoV2-14 VHH-Fc (Fc fusion)
chain: EVQLVSSGGGLVQAGGSLRLSCEASGTTFSHYAVGWYRQAPGKQREWVASISVFGSTTYGGSVAGRFTISRDNDKNTVDLQMNSLKPEDTAVYYCHAVNADIGGDYWGQGTQVTVSS
notes: bivalent VHH-Fc

biological target: T1, Human SARS-CoV-2 Beta (B.1.351) S (SARS-CoV-2 (Beta, B.1.351)); test: SPR, VHH over immobilised S

Row | Binder | Kd [nM] | koff [s⁻¹] | kon [M⁻¹ s⁻¹]
1 | B1 | 0.455 | 6.33e-05 | 139000
2 | B2 | 1.6 | 0.00329 | 2.05e+06
3 | B3 | 7.24 | 0.00101 | 139000
4 | B4 | 2.57 | 0.00101 | 395000
5 | B5 | 15.3 | 0.000898 | 58800
6 | B6 | 1.85 | 0.000563 | 304000
7 | B7 | 0.672 | 0.000143 | 213000
8 | B8 | 8.07 | 0.00104 | 129000
9 | B9 | 0.231 | 0.000552 | 2.38e+06
10 | B10 | 6.48 | 0.00239 | 369000

biological target: T2, Human SARS-CoV-2 Alpha (B.1.1.7) S (SARS-CoV-2 (Alpha, B.1.1.7)); test: SPR, VHH over immobilised S

Row | Binder | Kd [nM] | koff [s⁻¹] | kon [M⁻¹ s⁻¹]
11 | B1 | 0.55 | 0.000153 | 278000
12 | B2 | 0.283 | 0.000289 | 1.02e+06
13 | B3 | 5.72 | 0.0013 | 227000
14 | B4 | 1.57 | 0.000633 | 404000
15 | B5 | 9.52 | 0.00236 | 248000
16 | B6 | 1.78 | 0.00053 | 298000
17 | B7 | 0.364 | 9.89e-05 | 271000
18 | B8 | 20.2 | 0.0037 | 183000
19 | B9 | 0.264 | 0.00103 | 3.9e+06
20 | B10 | 12.9 | 0.00493 | 382000

biological target: Human SARS-CoV-2 Alpha S (SARS-CoV-2 (Alpha variant)); test: flow cytometry SVNA: VHH-Fc inhibits S binding to ACE2 on Vero E6 cells

Row | Binder | IC50 [nM]
21 | B11 | 4.2
22 | B12 | 4.8
23 | B13 | 11.3
24 | B14 | 6.4
25 | B15 | 10.6
26 | B16 | 12.2
27 | B17 | 3.1
28 | B18 | 21.9
29 | B19 | 6.1
30 | B20 | 5.2
31 | B21 | 5.2
32 | B22 | 4.2
33 | B23 | 6.6
34 | B24 | 9.8
35 | B25 | 5.7
36 | B26 | 18

biological target: T1, Human SARS-CoV-2 Beta (B.1.351) S; test: SPR, VHH over immobilised S; remark: another data set of the same source

Row | Binder | Kd [nM]
37 | B1 | 0.45
38 | B2 | 1.6
39 | B3 | 7.24
40 | B4 | 2.6
41 | B5 | 15.3
42 | B6 | 1.85
43 | B7 | 0.67
44 | B8 | 8.07
45 | B9 | 0.23
46 | B10 | 6.48

biological target: T2, Human SARS-CoV-2 Alpha (B.1.1.7) S; test: SPR, VHH over immobilised S; remark: another data set of the same source

Row | Binder | Kd [nM]
47 | B1 | 0.55
48 | B2 | 0.28
49 | B3 | 5.72
50 | B4 | 1.6
51 | B5 | 9.5
52 | B6 | 1.78
53 | B7 | 0.36
54 | B8 | 20.2
55 | B9 | 0.26
56 | B10 | 12.9

— patent publication US20240270826A1 (NATIONAL RESEARCH COUNCIL OF CANADA, published 2024)
